Experimental data from article PMC7384767 (Journal of natural products, 2020).
Starred links: 1 amine or outer side, 2 acyl side, 3 side chain; linkers in the order of their positions; H or OH if unused. Non-standard residues stand in square brackets, D forms with d. Residues, ends and D or L forms follow the SMILES beside them. Trp(1-CMe2(2S-oxiranyl)) = CC(C)([C@H]1CO1)n1cc(C[C@H](N)C(=O)O)c2ccccc21; Trp(1-(1,1-Me2-allyl)) = C=CC(C)(C)n1cc(C[C@H](N)C(=O)O)c2ccccc21; X3 = CC(C)([C@H](O)CCl)n1cc(C[C@H](N[*:1])C(=O)[*:2])c2ccccc21; Tyr(3-NO2) = N[C@@H](Cc1ccc(O)c([N+](=O)[O-])c1)C(=O)O; X1 = COC(OC)C(C)C[C@@H](C(=O)[*:2])N(C)[*:1]; X2 = C[C@H](CO)C[C@@H](C(=O)[*:2])N(C)[*:1]; Gly(E-crotyl) = C/C=C/C[C@H](N)C(=O)O; NMeL = CN[C@@H](CC(C)C)C(=O)O

test system: Vero cells (ATCC CRL-81); assay type: cell-based; conditions: Vero IC50 / M. tb H37Rv MIC

Compound | SI (selectivity index = IC50/MIC)
C=CC(C)(C)n1cc(C[C@@H]2NC(=O)[C@H](C/C=C/C)NC(=O)[C@H](CC(C)C)NC(=O)[C@H](C[C@H](C)CO)N(C)C(=O)[C@H](C)NC(=O)[C@H](Cc3ccc(O)c([N+](=O)[O-])c3)NC(=O)[C@H](CC(C)C)N(C)C2=O)c2ccccc21 [Compound 3, Rufomycin NBZ3] (cyclo(A[X2]L[Gly(E-crotyl)][Trp(1-(1,1-Me2-allyl))][NMeL][Tyr(3-NO2)])) | >119
C/C=C/C[C@@H]1NC(=O)[C@H](CC(C)C)N2C(=O)[C@H](C[C@@H](C)[C@H]2O)N(C)C(=O)[C@H](C)NC(=O)[C@H](Cc2ccc(O)c([N+](=O)[O-])c2)NC(=O)[C@H](CC(C)C)N(C)C(=O)[C@H](Cc2cn(C(C)(C)[C@H](O)CO)c3ccccc23)NC1=O [Compound 7, Rufomycin NBZ7] | >1000
C/C=C/C[C@@H]1NC(=O)[C@H](CC(C)C)NC(=O)[C@H](C[C@@H](C)CO)N(C)C(=O)[C@H](C)NC(=O)[C@H](Cc2ccc(O)c([N+](=O)[O-])c2)NC(=O)[C@H](CC(C)C)N(C)C(=O)[C@H](Cc2cn(C(C)(C)[C@H]3CO3)c3ccccc23)NC1=O [Compound 2, Rufomycin NBZ2] | >227
C=CC(C)(C)n1cc(C[C@@H]2NC(=O)[C@H](C/C=C/C)NC(=O)[C@H](CC(C)C)NC(=O)[C@H](CC(C)C)N(C)C(=O)[C@H](C)NC(=O)[C@H](Cc3ccc(O)cc3)NC(=O)[C@H](CC(C)C)N(C)C2=O)c2ccccc21 [Compound 4, Rufomycin NBZ4] (HELM PEPTIDE1{A.[meL].L.[C/C=C/C[C@H](N[*:1])C(=O)[*:2]].[C=CC(C)(C)n1cc(C[C@H](N[*:1])C(=O)[*:2])c2ccccc21].[meL].Y}$PEPTIDE1,PEPTIDE1,1:R1-7:R2$$$V2.0) | <9
C/C=C/C[C@@H]1NC(=O)[C@H](CC(C)C)NC(=O)[C@H](CC(C)C)N(C)C(=O)[C@H](C)NC(=O)[C@H](Cc2ccc(O)c([N+](=O)[O-])c2)NC(=O)[C@H](CC(C)C)NC(=O)[C@H](Cc2cn(C(C)(C)[C@H]3CO3)c3ccccc23)NC1=O [Compound 6, Rufomycin NBZ6] (cyclo(A[NMeL]L[Gly(E-crotyl)][Trp(1-CMe2(2S-oxiranyl))]L[Tyr(3-NO2)])) | >175
C/C=C/C[C@@H]1NC(=O)[C@H](CC(C)C)NC(=O)[C@H](C[C@H](C)CO)N(C)C(=O)[C@H](C)NC(=O)[C@H](Cc2ccc(O)c([N+](=O)[O-])c2)NC(=O)[C@H](CC(C)C)N(C)C(=O)[C@H](Cc2cn(C(C)(C)[C@H]3CO3)c3ccccc23)NC1=O [Compound 1, Rufomycin NBZ1] | >400
C/C=C/C[C@@H]1NC(=O)[C@H](CC(C)C)N2C(=O)[C@H](C[C@](C)(O)[C@H]2O)N(C)C(=O)[C@H](C)NC(=O)[C@H](Cc2ccc(O)c([N+](=O)[O-])c2)NC(=O)[C@H](CC(C)C)N(C)C(=O)[C@H](Cc2cn(C(C)(C)[C@H]3CO3)c3ccccc23)NC1=O [Compound 8, Rufomycin NBZ8] | >333
C/C=C/C[C@@H]1NC(=O)[C@H](CC(C)C)NC(=O)[C@H](CC(C)C)N(C)C(=O)[C@H](C)NC(=O)[C@H](Cc2ccc(O)c([N+](=O)[O-])c2)NC(=O)[C@H](CC(C)C)N(C)C(=O)[C@H](Cc2cn(C(C)(C)[C@H](O)CCl)c3ccccc23)NC1=O [Compound 13] (cyclo(A[NMeL]L[Gly(E-crotyl)][X3][NMeL][Tyr(3-NO2)])) | >435
C/C=C/C[C@@H]1NC(=O)[C@H](CC(C)C)NC(=O)[C@H](CC(C)C(OC)OC)N(C)C(=O)[C@H](C)NC(=O)[C@H](Cc2ccc(O)c([N+](=O)[O-])c2)NC(=O)[C@H](CC(C)C)N(C)C(=O)[C@H](Cc2cn(C(C)(C)[C@H]3CO3)c3ccccc23)NC1=O (stereo partly drawn) [Compound 5, Rufomycin NBZ5] (cyclo(A[X1]L[Gly(E-crotyl)][Trp(1-CMe2(2S-oxiranyl))][NMeL][Tyr(3-NO2)])) | >91
